The results in this text go back to article PMC3445474 (PLoS ONE, 2012).

The assay deals with A/Udorn/307/72(H3N2).

With `CC(=O)N[C@H]1[C@H]([C@H](O)[C@H](O)CO)OC(C(=O)O)=C[C@@H]1N=C(N)N` [zanamivir, Zanamivir], the “Increase in the HI titer of saliva induced by zanamivir” value came to 16 fold.
